Anti-infective test results gathered from many reports (values: NIAID ChemDB through PubChem).

Shared fields: growth or infection tests; species: HIV-1; method: RT activity; measure: fold resistance

Neighbouring rows are from separate reports. Blank or dashed fields: not listed here. Fold resistance: result on the changed form divided by that on wild type.

smiles | cells | mutations | setting | strain or isolate | value
Nc1nc(=O)n([C@@H]2C[Se][C@H](CO)O2)cc1F | PBMC | RT-M184V |  | BRU(RT-M184V) | >455
Cc1ccccc1CNC(=O)[C@H]1N(C(=O)[C@@H](O)[C@H](Cc2ccccc2)NC(=O)c2cccc(O)c2C)CSC1(C)C | PBMC | PR-L10R M46I L63P A71V V82T I84V |  | 052-52 PI-resistant | 1
Nc1ccn([C@@H]2CC[C@H](CO)O2)c(=O)n1 | CEM + CEM-SS | RT-Y181C |  | N119 nevirapine-resistant (RT Y181C) | 3.38
COC(=O)[C@H](C)NP(=O)(OC[C@H]1O[C@@H](N2C(=O)NC(=O)C(C)(Br)C2OC)C[C@@H]1N=[N+]=[N-])Oc1ccc(OC)cc1 | PBMC | RT-T215Y |  | RTMF(RT-T215Y) | 2.25
O=c1[nH]cnc2c1ncn2[C@H]1CC[C@@H](CO)O1 | MT-4 | RT-D67G |  | HxB2D(RT-D67G) | 2.83
O=c1[nH]cnc2c1ncn2[C@H]1CC[C@@H](CO)O1 | MT-4 | RT-M184V |  | HXB2-D184 (RT-M184V) | 5.1
Nc1nc(=O)n([C@H]2CO[C@@H](CO)S2)cc1F | MT-4 | RT-D67G |  | HxB2D(RT-D67G) | 5.21
CC[C@]1(c2ccccc2)Oc2cccnc2-n2cccc2C1=O | PBMC | RT-M41L K103N T215Y |  | Resistant (MDR) isolate | 85
CC(C)(C)NC(=O)[C@@H]1CN(Cc2cccnc2)CCN1C[C@@H](O)C[C@@H](Cc1ccccc1)C(=O)N[C@H]1c2ccccc2C[C@H]1O |  | PR-V32I M46I L63P I84A | 10 d | CGP 61755-resistant (PR V32I M46I L63P I84A) | 27
Nc1ccn([C@@H]2CO[C@H](CO)S2)c(=O)n1 | MT-2 | RT-M184V |  | HXB2D (RT-M184V) | >33.33
Cc1cn([C@H]2C[C@H](N=[N+]=[N-])[C@@H](CO)O2)c(=O)[nH]c1=O | CEM + CEM-SS | RT-Y181C |  | N119 nevirapine-resistant (RT Y181C) | 2
Cc1cn([C@H]2C=C[C@@H](CO)O2)c(=O)[nH]c1=O | PBMC | RT-T69K K70G V75I F77L F116Y Q151M M184V |  | 1617-1 NRTI resistant recombinant | 11
CC(C)CN(C[C@@H](O)[C@H](Cc1ccccc1)NC(=O)O[C@H]1CCOC1)S(=O)(=O)c1ccc(N)cc1 | PBMC | PR-L10I M46I I54V L63P V82F L90M |  | 1002-60 PI-resistant | 7
Nc1nc(=O)n([C@@H]2CO[C@H](CO)S2)cc1F | CBMC | RT-M184V |  | HXB2D (RT-M184V) | 2.12
COc1ccc(C[C@H](NC(=O)c2cccc(O)c2C)[C@H](O)C(=O)N2CSC(C)(C)[C@H]2C(=O)NCc2ccccc2C)cc1 | PBMC | PR-L10I M46I I54V L63P A71V V82A L90M |  | 1026-40 PI-resistant | 15
Cc1cn([C@H]2C[C@H](N=[N+]=[N-])[C@@H](CO)O2)c(=O)[nH]c1=O | MT-2 | RT-K103N Y181C |  | A17 | 0.5
Cc1cn([C@H]2C[C@H](N=[N+]=[N-])[C@@H](CO)O2)c(=O)[nH]c1=O | PBMC | RT-T69K K70G V75I F77L F116Y Q151M M184V |  | 56252-1 NRTI resistant recombinant | >1000
CC(C)=CCN1Cc2cccc3[nH]c(=S)n(c23)C[C@@H]1C | MT-2 | RT-L92I |  | PD165BC(RT-L92I) | 0.304
Cc1cccc(C)c1OCC(=O)N[C@@H](Cc1ccccc1)[C@@H](O)C[C@H](Cc1ccccc1)NC(=O)[C@H](C(C)C)N1CCCNC1=O | PBMC | PR-L10I M46I I54V L63P V82F L90M |  | 1002-60 PI-resistant | 441
CC(C)OC(=O)OCOP(=O)(CO[C@H](C)Cn1cnc2c(N)ncnc21)OCOC(=O)OC(C)C | PBMC | RT-M41L E44D D67N T69D Y118I M184V L210W T215Y |  | 4755-5 NRTI resistant recombinant | 2.3
COc1cccc(C[C@H](NC(=O)c2cccc(O)c2C)[C@H](O)C(=O)N2CSC(C)(C)[C@H]2C(=O)NCc2c(C)cccc2C)c1 | PBMC | PR-L10I M46I I54V L63P V82F L90M |  | 1002-60 PI-resistant | 5
Nc1ccn([C@@H]2CS[C@H](CO)O2)c(=O)n1 | PBMC | RT-T69K K70G V75I F77L F116Y Q151M M184V |  | 1617-1 NRTI resistant recombinant | >300

The last 3 rows once more:

smiles	cells	mutations	setting	strain or isolate	value
CC(C)OC(=O)OCOP(=O)(CO[C@H](C)Cn1cnc2c(N)ncnc21)OCOC(=O)OC(C)C	PBMC	RT-M41L E44D D67N T69D Y118I M184V L210W T215Y		4755-5 NRTI resistant recombinant	2.3
COc1cccc(C[C@H](NC(=O)c2cccc(O)c2C)[C@H](O)C(=O)N2CSC(C)(C)[C@H]2C(=O)NCc2c(C)cccc2C)c1	PBMC	PR-L10I M46I I54V L63P V82F L90M		1002-60 PI-resistant	5
Nc1ccn([C@@H]2CS[C@H](CO)O2)c(=O)n1	PBMC	RT-T69K K70G V75I F77L F116Y Q151M M184V		1617-1 NRTI resistant recombinant	>300